Usually Km stands for the concentration of substrate that gives half-maximal velocity. What is called kcat is the maximal rate divided by the concentration of active sites.

The data set concerns N=C(N)NCCC[C@H](N)C(=O)O. Briefly: purified protein. The conditions noted are these: 40 mM Hepes pH 7.0, 0-20 mM arginine.
In the case of “ADIAI (recombinant ADI, assemblage AI, isolate WB C6) (Giardia lamblia ATCC 50803; I449V/S167G)”, the Km was 560 ± 120 µM and the kcat turned out to be 4.14 ± 0.48 s⁻¹.
As to “ADIAI (recombinant ADI, assemblage AI, isolate WB C6) (Giardia lamblia ATCC 50803; S167G)”, the Km was found to be 500 ± 50 µM.
As to “ADIAI (recombinant ADI, assemblage AI, isolate WB C6) (Giardia lamblia ATCC 50803; I449V/P494L)”, the Km was 550 ± 90 µM and the turnover number (kcat) was found to be 3.13 ± 0.18 s⁻¹.
As for “ADIAI (recombinant ADI, assemblage AI, isolate WB C6) (Giardia lamblia ATCC 50803; P494L/S167G)”, the Km was 1490 ± 300 µM and the turnover number (kcat) turned out to be 2.24 ± 0.06 s⁻¹.
Taken in the same sequence, the figures for “ADIAI (recombinant ADI, assemblage AI, isolate WB C6) (Giardia lamblia ATCC 50803; P494L)” were 470 ± 80 µM and 3.51 ± 0.40 s⁻¹.
“ADIAI (recombinant ADI, assemblage AI, isolate WB C6) (Giardia lamblia ATCC 50803; I449V)”: the Km was 300 ± 40 µM and the kcat was found to be 3.86 ± 0.36 s⁻¹.

Values taken from article PMC12810918, “Arginine metabolism has a pivotal function for the encystation of Giardia duodenalis” (PLOS Pathogens, 2026).
